Human monoclonal antibodies against the spike receptor-binding domain (heavy:light variable regions). IC50 against pseudoviruses bearing the spike of naturally observed variants; lower = stronger; >10 µg/ml means not reached at the top dose. No active / inactive call. The stated detection limit is 0.0005 µg/ml; values near or below 0.001 µg/ml lie at the floor of the assay.
B1: BD56-1899 (protein)
chain 1: QITLKESGPTLVKPTQTLTLTCTFSGFSLTSSGVGVGWIRQPPGKALEWLALIYWDDDKRYRPSLKSRLTITKDASKKQVVFTLTNMGPVDTGTYYCAHIGGQLAVSDPATFDFWGQGTLVTVSS
chain 2: QSALTQPASVSGSPGQSITISCTGTNSDVGNYNFVSWYQHHPGKAPKLIIYEVSKRPSGVSNRFSGSKSGNTASLTISGLQAEDEAAYYCCSCTSGDTYWVFGGGTKLTVL
B2: BD56-1881 (protein)
chain 1: QVQLVQSGAEVKKPGSSVKVSCKASGDTFSSFSINWVRQAPGQGLEWMGRIIPLLDIVNYAQNFQGRVTLTADKSTTTAYMELTSLRFEDSAVYYCATARAPFYPSGYQGALNYFDPWGQGTLVTVSS
chain 2: EIVLTQSPGTLSLSPGERATLSCRASQSISNTYLAWYQQKPGQAPRLLIYGASSRATGIPDRFSGSGSGTDFTLTVSRLEPEDFAVYYCQQYHSSPFTFGQGTKLEIK
B3: BD56-1877 (protein)
chain 1: QVQLVQSGSELQKPGASVKVSCKASGYAFTTYAINWVRQAPGHGLEWMGWISTNTGNPAYAQGFTGRFVFSLDTSVSTAYLQISSLKAEDTAVYYCASQTIAPRPWPFDYWGQGTLVTVSS
chain 2: EIVLTQSPGTLSLSPGERATLSCRASQSVFSSYLAWYQQKPAQAPRLLISGASSRATGIPDRFSGSGSGTDFTLTISRLEPEDFAVYYCQQYGTSPPTFGQGTKVEIK
B4: BD56-1898 (protein)
chain 1: EVQLVESGGGLVQPGGSLRLLCAASGLTFSSYWMSWVRQAPGKGLEWVANIKEDGSEKYYVDSVKGRFTISRDNAKNSLFLQMNSLRAEDTATYFCARVKWLRGGVDYWGQGALVTVSS
chain 2: NFMLTQPHSVSESPGRTVTISCTGSGGYIASNYVQWYQHRPGSAPTTVIYEDNQRPSGVPDRFSGSIDSSSNSASLTISGLKTEDEADYYCQSFDVTNHWVFGGGTKLTVL
B5: BD56-1880 (protein)
chain 1: EVQLVESGGGLVQPGGSLRLSCAASGFTITNNYMSWVRQAPGKGLEWVSVINAGGSTYYADSVEGRFTISRDNSKNTLYLQMNSLRGEDTAVYFCARDPAGFGEFGFDLWGQGTLVTVSS
chain 2: DIQLTQSPSSLSASVGDRVTITCRASQGFGSYFAWYQQKPGKAPKLLIYSTSTLQSGVPSRFSGSGSGTDFTLTISSLQPEDFATYYCQQLNSSPPLTFGGGTKVEIK
B6: BD56-1886 (protein)
chain 1: QVQLQESGPGLVKSSETLSLTCSVTGGSISNYYWSWIRQPPGKGLEWIGYIFYGGSTNYNPSLRSRVTMSVDSSKNQFSLKLNSVTAADTAVYYCARDSGYSSGWPDFFDYWGQGTRVTVSS
chain 2: EIVLTQSPATLSLSPGERATLSCRASQSVSSYLAWYQQKPGQAPRLLIYDASNRATGIPARFSGSGSGTDFTLTISSLEPEDFAVYYCQQRSNWPGTFGQGTKVEIK

target: SARS-CoV-2 Omicron BA.1 spike pseudovirus; experiment: pseudovirus neutralization IC50; higher = weaker neutralization
Method: (§1)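 Single-round VSV luciferase pseudovirus mixed with antibody dilutions for 1 h and put on Huh-7 cells for about a day; IC50 from the dose curve.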

| Binder | pseudovirus neutralization IC50 [µg/mL] |
| --- | --- |
| B1 | 0.0477 |
| B2 | 0.0391 |
| B3 | 0.00644 |
| B4 | > 10 |
| B5 | 0.00836 |
| B6 | 3.1 |

target: SARS-CoV-2 Omicron BA.2 spike pseudovirus; experiment: as above
Method: as §1

| Binder | pseudovirus neutralization IC50 [µg/mL] |
| --- | --- |
| B1 | 0.000554 |
| B2 | 0.0952 |
| B3 | 0.00436 |
| B4 | > 10 |
| B5 | 0.00798 |
| B6 | 5.32 |

target: SARS-CoV-2 Omicron BA.2.75 spike pseudovirus; experiment: as above
Method: as §1

| Binder | pseudovirus neutralization IC50 [µg/mL] |
| --- | --- |
| B1 | 0.0653 |
| B2 | 0.0475 |
| B3 | 0.00855 |
| B4 | > 10 |
| B5 | 0.0124 |
| B6 | 2.08 |

target: SARS-CoV-2 Omicron BA.5 spike pseudovirus; experiment: as above
Method: as §1

| Binder | pseudovirus neutralization IC50 [µg/mL] |
| --- | --- |
| B1 | 0.00153 |
| B2 | > 10 |
| B3 | > 10 |
| B4 | > 10 |
| B5 | 0.00667 |
| B6 | > 10 |

target: SARS-CoV-2 Omicron BQ.1.1 spike pseudovirus; experiment: as above
Method: as §1

| Binder | pseudovirus neutralization IC50 [µg/mL] |
| --- | --- |
| B1 | > 10 |
| B2 | > 10 |
| B3 | > 10 |
| B4 | > 10 |
| B5 | 0.0567 |
| B6 | > 10 |

target: SARS-CoV-2 Omicron XBB spike pseudovirus; experiment: as above
Method: as §1

| Binder | pseudovirus neutralization IC50 [µg/mL] |
| --- | --- |
| B1 | > 10 |
| B2 | > 10 |
| B3 | > 10 |
| B4 | > 10 |
| B5 | 0.171 |
| B6 | > 10 |

target: SARS-CoV-2 early D614G spike pseudovirus; experiment: as above
Method: as §1

| Binder | pseudovirus neutralization IC50 [µg/mL] |
| --- | --- |
| B1 | 0.000869 |
| B2 | 0.00281 |
| B3 | 0.00225 |
| B4 | 0.365 |
| B5 | 0.00657 |
| B6 | 0.205 |
